Compound potency records, mixed from different reports. Data source: NIAID ChemDB in PubChem.

All rows: growth or infection tests; agent: HIV-1; read by: luminescence; measure: EC50

ECn: concentration that inhibits the pathogen or its effect by n%. Conditions beyond the fields shown may differ between rows. Blank or dashed fields: not listed here.

structure	cells	conditions	strain	value
CO[C@H]1CC[C@H](C)N2C[C@H]1n1cc(C(=O)NCc3c(F)cc(F)cc3F)c(=O)c(O)c1C2O	MT-4		IIIB	0.0015 µM
[Cl][Mn][Cl].c1cc2c3nc1CNCCNCCNCCNC3CCC2	TZM-bl		NL4-3	0.52 µM
COc1cccc2ccc(-c3nnc(-c4ccncc4)o3)nc12	TZM-bl		UG070	89.32 µM
Cc1cc2nc(-c3ccc4c(c3)c(N3CC5(CCCC5)C3)nn4C)sc2c(-c2ccc(Cl)cc2)c1[C@H](OC(C)(C)C)C(=O)O	MT-4		IIIB	0.061 µM
[Cl][Fe]([Cl])[Cl].c1cc2nc(c1)CNCCNCCNCCNC2	TZM-bl		NL4-3	2.8 µM
Cc1cc2nc(-c3ccc4c(c3)c(N3CCN(CC5OCCO5)C3=O)nn4C)sc2c(-c2ccc(Cl)cc2)c1[C@H](OC(C)(C)C)C(=O)O	MT-4		IIIB	0.013 µM
CCCCCOC(=O)C[C@H](NP(=O)(CO[C@H](CF)COc1nccc(N)n1)Oc1ccccc1)C(=O)OCCCCC	TZM-bl		BaL	>43.21 µM
Cc1cc2nc(-c3ccc4c(c3)c(C3CCN(C5COC5)CC3)nn4CCN(C)C)sc2c(-c2ccc(Cl)cc2)c1[C@H](OC(C)(C)C)C(=O)O	MT-4		IIIB	0.011 µM
COC(=O)N[C@H](C(=O)N[C@@H](Cc1ccc(C#Cc2cnc(N3CC4CCC(C3)N4C3COC3)nc2)cc1)[C@H](CN(Cc1c(F)cc(-c2ccn(C(F)F)n2)cc1F)NC(=O)[C@@H](NC(=O)OC)C(C)(C)C(F)(F)F)OC(=O)CC(C)(C)c1c(CC(=O)NC(CCC(=O)O)CCC(=O)O)cc(C)cc1OP(=O)(O)O)C(C)(C)C(F)(F)F	MT-4		IIIB	0.0491 µM
Cc1cc2nc(-c3ccc4c(c3)c(C3CCN(C5CN(S(C)(=O)=O)C5)CC3)nn4C)sc2c(-c2ccc(Cl)cc2)c1[C@H](OC(C)(C)C)C(=O)O	MT-4		IIIB	0.013 µM
Clc1cc(/C=C/c2ccc(N3CCOCC3)cc2)nc2ccccc12	TZM-bl		UG070	61 µM
Cc1cc2nc(c1)CNCCNCCNCCNC2.[Cl][Mn][Cl]	TZM-bl		NL4-3	3 µM
Cc1ccc(/C=C/c2cc(Cl)c3ccccc3n2)cc1	TZM-bl		VB59	7.51 µM
COc1cc(NC(=O)c2ccc3ccc(C(C)=O)c(O)c3n2)cc(O)c1O	TZM-bl			6.5 µM
CC1=NO[C@@]2(CC[C@H](C)N3C[C@H]2n2cc(C(=O)NCc4ccc(F)cc4F)c(=O)c(OCOC(=O)OCC4(COP(=O)(O)O)CCC4)c2C3=O)C1	MT-4		IIIB	0.002514 µM
Cc1c(C#N)cc(C(F)F)cc1Oc1c(C(F)(F)C(F)F)ncn(Cc2cc(F)c[nH]c2=O)c1=O				0.0275 µM
Clc1cc(/C=C/c2ccco2)nc2ccccc12	TZM-bl		UG070	80.96 µM
C#C[C@]1(CO)O[C@@H](n2cnc3c(N)nc(F)nc32)C[C@@H]1OC(=O)C(C)CCCCC	U373-CD4-CXCR4	pseudotyped	NL4-3	0.0029 µM
c1cc2c3nc1CNCCNCCNCCNC3CCC2	TZM-bl		NL4-3	0.86 µM
C#C[C@]1(CO)O[C@@H](n2cnc3c(N)nc(F)nc32)C[C@@H]1OC(=O)c1ccccc1	U373-CD4-CXCR4	pseudotyped	NL4-3	0.0408 µM
CC(=O)c1ccc2ccc(/C=C/c3ccc(O)c(O)c3)nc2c1O	TZM-bl			2.4 µM
C#C[C@]1(CO)O[C@@H](n2cnc3c(N)nc(F)nc32)C[C@@H]1OC(=O)CCCCCCC/C=C\C/C=C\C/C=C\CC	U373-CD4-CXCR4	pseudotyped	NL4-3	0.0071 µM
Fc1ccc(/C=C/c2cc(Cl)c3ccccc3n2)c(F)c1	TZM-bl		UG070	>166 µM
c1c2c3nc4c1CCC[C@@H]4NCCNCCNCCN[C@H]3CCC2	TZM-bl		NL4-3	1.4 µM
COC(=O)N[C@H](C(=O)N[C@@H](Cc1ccc(C#Cc2cnc(N3CC4CCC(C3)N4C3COC3)nc2)cc1)[C@H](CN(Cc1c(F)cc(-c2ccn(C(F)F)n2)cc1F)NC(=O)[C@@H](NC(=O)OC)C(C)(C)C(F)(F)F)OC(=O)CC(C)(C)c1c(CC(=O)Nc2ccc(C(=O)O)cc2)cc(C)cc1OP(=O)(O)O)C(C)(C)C(F)(F)F	MT-4		IIIB	0.251 µM
COc1cc2c(cc1OC)[C@H](c1cc(OC)c(OC)c(OC)c1)[C@@H](C)[C@@H](C)C2	MT-2		NL4-3	0.771 µM
C#C[C@]1(CO)O[C@@H](n2cnc3c(N)nc(F)nc32)C[C@@H]1OC(=O)C(CCCC)CCCCCC	U373-CD4-CXCR4	pseudotyped	NL4-3	0.1454 µM
Clc1cc(/C=C/c2cccs2)nc2ccccc12	TZM-bl		UG070	57.4 µM
Cc1cc2nc(-c3ccc4c(c3)c(C3CCN(C[C@H]5CCN5C)CC3)nn4C)sc2c(-c2ccc(Cl)cc2)c1[C@H](OC(C)(C)C)C(=O)O	MT-4		IIIB	0.011 µM
CC1=NO[C@@]2(CC[C@H](C)N3C[C@H]2n2cc(C(=O)NCc4ccc(F)cc4F)c(=O)c(OCOC(=O)OCCC(C)(C)c4c(CC(=O)O)cc(C)cc4OP(=O)(O)O)c2C3=O)C1	MT-4		IIIB	0.001432 µM
Cc1cc2nc(-c3ccc4c(c3)c(C3CCN(C[C@@H]5CCN5C)CC3)nn4C)sc2c(-c2ccc(Cl)cc2)c1[C@H](OC(C)(C)C)C(=O)O	MT-4		IIIB	0.011 µM
C#C[C@]1(CO)O[C@@H](n2cnc3c(NC(=O)OCC)nc(F)nc32)C[C@@H]1OC(=O)CCCCCCCCC	U373-CD4-CXCR4	pseudotyped	NL4-3	0.1651 µM
CCn1nc(C2CCN(C3CN(C(C)=O)C3)CC2)c2cc(-c3nc4cc(C)c([C@H](OC(C)(C)C)C(=O)O)c(-c5ccc(Cl)cc5)c4s3)ccc21	MT-4		IIIB	0.007 µM
C#C[C@]1(CO)O[C@@H](n2cnc3c(N)nc(F)nc32)C[C@@H]1OC(=O)C(CCC)CCC	U373-CD4-CXCR4	pseudotyped	NL4-3	0.0355 µM
CCCCCOC(=O)C[C@H](NP(=O)(CO[C@@H](CF)Cn1ccc2c(=O)[nH]c(N)nc21)N[C@@H](CC(=O)OCCCCC)C(=O)OCCCCC)C(=O)OCCCCC	TZM-bl		BaL	2.62 µM
C#C[C@]1(CO)O[C@@H](n2cnc3c(N)nc(F)nc32)C[C@@H]1OC(=O)C1CCCCC1	U373-CD4-CXCR4	pseudotyped	NL4-3	0.0039 µM
Cc1cc2nc(-c3ccc4c(c3)c(C3CCN(C5CC(O)C5)CC3)nn4C)sc2c(-c2ccc(Cl)cc2)c1[C@H](OC(C)(C)C)C(=O)O	MT-4		IIIB	0.021 µM
C1=NCCNCCNCCN=Cc2cccc1n2.[Cl][Mn][Cl]	TZM-bl		NL4-3	17 µM

Repeating the final 6 entries:

| structure | cells | conditions | strain | value |
|---|---|---|---|---|
| CCn1nc(C2CCN(C3CN(C(C)=O)C3)CC2)c2cc(-c3nc4cc(C)c([C@H](OC(C)(C)C)C(=O)O)c(-c5ccc(Cl)cc5)c4s3)ccc21 | MT-4 |  | IIIB | 0.007 µM |
| C#C[C@]1(CO)O[C@@H](n2cnc3c(N)nc(F)nc32)C[C@@H]1OC(=O)C(CCC)CCC | U373-CD4-CXCR4 | pseudotyped | NL4-3 | 0.0355 µM |
| CCCCCOC(=O)C[C@H](NP(=O)(CO[C@@H](CF)Cn1ccc2c(=O)[nH]c(N)nc21)N[C@@H](CC(=O)OCCCCC)C(=O)OCCCCC)C(=O)OCCCCC | TZM-bl |  | BaL | 2.62 µM |
| C#C[C@]1(CO)O[C@@H](n2cnc3c(N)nc(F)nc32)C[C@@H]1OC(=O)C1CCCCC1 | U373-CD4-CXCR4 | pseudotyped | NL4-3 | 0.0039 µM |
| Cc1cc2nc(-c3ccc4c(c3)c(C3CCN(C5CC(O)C5)CC3)nn4C)sc2c(-c2ccc(Cl)cc2)c1[C@H](OC(C)(C)C)C(=O)O | MT-4 |  | IIIB | 0.021 µM |
| C1=NCCNCCNCCN=Cc2cccc1n2.[Cl][Mn][Cl] | TZM-bl |  | NL4-3 | 17 µM |